Tested on: O=C(O)C=CC=C(O)C(=O)O
Experiment: purified protein
Details: 10 mM Na2HPO4 pH 7.3, 22 °C

| Substance | Km [µM] | kcat [s⁻¹] | kcat/Km [M⁻¹ s⁻¹] |
| --- | --- | --- | --- |
| fused 4-OT (fused 4-oxalocrotonate tautomerase) (Burkholderia lata; P2A) | 221 ± 11 | 3.4 ± 0.1 | 15400 |
| fused 4-OT (fused 4-oxalocrotonate tautomerase) (Burkholderia lata; R105A) | 213 ± 18 | 313 ± 15 | 1.47e+06 |

Reference: paper PMC6948721
